Measured values from several laboratories, pooled; numbers as filed in NIAID ChemDB.

CCn is the concentration with n% toxicity to the cells. MIC bound comes from a single tested concentration. Zones are inhibition diameters on agar. Neighbouring rows are from separate reports. An empty or dashed field is not shown. ECn: concentration that inhibits the pathogen or its effect by n%. Inhibition is in % at the dose shown (toxicity tests: loss of growth or viability). ICn: concentration for n% inhibition.

| compound | protein | kind | cells | tested at | conditions | strain | read-out | read by | species | result |
|---|---|---|---|---|---|---|---|---|---|---|
| Nc1ncnc2c1ncn2[C@H]1CC[C@@H](CO)O1 | - | toxicity | MT-4 | - | - | - | CC50 | XTT | - | 1493 µM |
| O=[N+]([O-])c1ccc(S(=O)(=O)c2ccc([N+](=O)[O-])cc2[N+](=O)[O-])c([N+](=O)[O-])c1 | Integrase | target | - | - | - | - | IC50 | strand transfer | HIV-2 | 93 µM |
| Nc1ccn([C@H]2CC[C@@H](CO)O2)c(=O)n1 | - | culture | MT-4 | - | - | - | EC50 | p24 / ELISA | HIV-1 | 0.29 µM |
| O=[N+]([O-])c1cccc2c1no[n+]2[O-] | - | culture | - | - | - | H37Rv | MIC bound | resazurin | Mycobacterium tuberculosis | <6.25 µg/mL |
| Cc1cn([C@H]2C[C@H](N=[N+]=[N-])[C@@H](COP(=O)(F)OCCSC(=O)C(C)(C)C)O2)c(=O)[nH]c1=O | - | culture | CEM + CEM TK- | - | - | IIIB | EC50 | - | HIV-1 | 18 µM |
| Cc1cn([C@H]2C[C@H](F)[C@@H](CO)O2)c(=O)[nH]c1=O | - | toxicity | MT-4 | - | - | - | CC50 | - | - | 190 µM |
| CCN(CC)CC#CCOC(=O)C(O)(c1ccccc1)c1cccs1 | - | culture | - | 6.25 µg/mL | - | H37Rv | inhibition | - | Mycobacterium tuberculosis | 9% |
| Cc1cn([C@H]2C[C@H](F)[C@@H](CO)O2)c(=O)[nH]c1=O | - | culture | H9 | - | - | - | EC50 | p24 | HIV-1 | ~0.05 µM |
| Br.NC1=NCCN1[N+](=O)[O-] | - | culture | - | 12.5 µg/mL | - | H37Rv | inhibition | BACTEC | Mycobacterium tuberculosis | 55% |
| O=[N+]([O-])c1cc(Cn2nnc(-c3cc([N+](=O)[O-])cc([N+](=O)[O-])c3)n2)cc([N+](=O)[O-])c1 | - | culture | - | - | 14 d | My 235/80 | MIC | - | Mycobacterium kansasii | 2 µM |
| N#Cc1c(SCCBr)nsc1-c1ccccc1 | - | culture | HEP-2 | - | - | Edmonston | EC50 | plaque count | Measles virus | >25 µg/mL |
| Nc1cc([As]=O)ccc1O | - | culture | MT-2 | - | - | IIIB | EC50 | MTT / p24 | HIV-1 | 0.31 µg/mL |
| CNP1(NC)=NP(Cl)(Cl)=NP(N)(N)=N1 | - | culture | - | - | - | H37Rv | MIC | BACTEC | Mycobacterium tuberculosis | ≥128 µg/mL |
| C(/C=C/c1ccccc1)=NCCNCCN=C/C=C/c1ccccc1.[N-]=[N+]=[N][Hg][N]=[N+]=[N-] | - | culture | - | 30000 µg/mL | - | - | zone | agar diffusion | Candida albicans | 28 mm |
| CCc1cn([C@H]2C[C@H](O)[C@@H](COP(=O)(O)F)S2)c(=O)[nH]c1=O | - | culture | VERO | - | - | L2 acyclovir-susceptible | EC50 | cytopathic effect | Herpes simplex virus 1 | 269 µM |
| O=C(Nc1ncc([N+](=O)[O-])s1)c1cc([N+](=O)[O-])cc([N+](=O)[O-])c1 | - | culture | - | - | - | H37Rv | MIC bound | BACTEC | Mycobacterium tuberculosis | >12.5 µg/mL |

Repeating the first 2 entries:

| compound | protein | kind | cells | tested at | conditions | strain | read-out | read by | species | result |
|---|---|---|---|---|---|---|---|---|---|---|
| Nc1ncnc2c1ncn2[C@H]1CC[C@@H](CO)O1 | - | toxicity | MT-4 | - | - | - | CC50 | XTT | - | 1493 µM |
| O=[N+]([O-])c1ccc(S(=O)(=O)c2ccc([N+](=O)[O-])cc2[N+](=O)[O-])c([N+](=O)[O-])c1 | Integrase | target | - | - | - | - | IC50 | strand transfer | HIV-2 | 93 µM |